Assay results: paper PMC6131760, “4-Phenyl-1,3-thiazole-2-amines as scaffolds for new antileishmanial agents” (The Journal of Venomous Animals and Toxins Including …, 2018)

Legend:
THP1 cells = assay: Cytotoxicity assay in THP-1 cells differentiated into macrophages (PrestoBlue); type: cell-based, human; settings: CC50 THP1 cells / IC50 L. amazonensis
Description: (§1) The cytotoxicity was measured in L929 and THP1 cell lines using PrestoBlue®Cell Viability Reagent (Thermo Scientific, Invitrogen) as described by Lall et al. with modifications. First, cells were maintained in RPMI 1640 (Gibco) supplemented with 10% fetal bovine serum (FBS) and 1% antibiotics (100 U/mL penicillin, 100 μg/mL streptomycin). Cell cultures were grown and maintained at 37 °C in a humidified incubator with 5% CO2. Then, L929 cells were seeded in 96-wells flat microtiter plate at a concentration of 1 × 10^5cells/mL (100 μL/well). To THP-1 cells, cultures were differentiated into macrophages by adding 50 ng/mL 12-myristate 13-acetate phorbol (PMA) (Calbiochem, San Diego, USA) in RPMI-free FBS. After 24 h of culturing, the adhered cells were washed with PBS and RPMI with 10% FBS were added. […] The plates were incubated for 48 h and, thereafter, 20 μL/well PrestoBlue® was added. The plates were incubated for further 2 h and the fluorescence was read at bottom using 540–570 nm excitation and 580–610 nm emission. The average of the fluorescence values of the control wells (medium plus PrestoBlue®) was subtracted from the fluorescence value of the positive controls (cells, medium, and PrestoBlue®) and from each experimental well (cells, medium, compounds and PrestoBlue®). In all cases, the CC50 was calculated as described as in the Antileishmanial assay Section. Selectivity indexes (SI) were calculated by dividing CC50 against each mammalian cell line by the IC50 against L. amazonensis (CC50/IC50).

VERO cells = assay: Cytotoxicity assay in Vero cells (MTT); type: cell-based, African green monkeys; settings: CC50 VERO cells / IC50 L. amazonensis
Description: Cytotoxicity was also evaluated using Vero cells, a monkey kidney cell line obtained from the American Type Culture Collection (ATCC CCL-81; Manassas, VA). The cytotoxicity was determined by the 3-(4,5dimethylthiazol- 2-yl)-2,5-diphenyltetrazolium bromide (MTT) method according to a previously described procedure.
In all cases, the CC50 was calculated as described as in the Antileishmanial assay Section.
Selectivity indexes (SI) were calculated by dividing CC50 against each mammalian cell line by the IC50 against L. amazonensis (CC50/IC50).

L929 cells = assay: Cytotoxicity assay in L929 cells (PrestoBlue); type: cell-based; settings: CC50 L929 cells / IC50 L. amazonensis
Description: as §1

Row | SMILES | SI (THP1 cells) | SI (VERO cells) | SI (L929 cells)
1 | Nc1nc(-c2ccccc2)cs1 [Compound 1] | 0.15 | 0.74 | 0.20
2 | Cc1ccc(-c2csc(N)n2)cc1 [Compound 2] | 1.26 | 6.11 | 1.48
3 | Nc1nc(-c2ccc(Cl)c(Cl)c2)cs1 [Compound 4] | – | 4.80 | –
4 | Nc1nc(-c2ccc(C(F)(F)F)cc2)cs1 [Compound 5] | – | 9.59 | –
5 | CC(C)(C)c1ccc(-c2csc(N)n2)cc1 [Compound 6] | 2.20 | 5.69 | 1.30
6 | Nc1nc(-c2ccc(Cl)cc2)cs1 [Compound 8] | 0.70 | 5.14 | 0.99
